# Screening data, single-dose tests

Mtb glucose medium: 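Whole-cell growth test on Mycobacterium tuberculosis, read after 3 days in glucose-containing 7H9 medium; the read-out is not stated. Concentration: 500 µM. The record gives no direction; compounds that gave an IC50 in retests scored well above the rest, so higher reads as more growth inhibition. Of about 18,000 compounds tested this way, about 1,400 (7.9%) reached 50% or more in at least one test.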
Mtb cholesterol medium: 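Whole-cell growth test on Mycobacterium tuberculosis, read after 4 days in a medium based on cholesterol and the lipid DPPC; the read-out is not stated. Compounds at 500 µM. Higher reads as more growth inhibition (inferred: compounds with an IC50 in retests scored well above the rest). Of about 18,000 compounds tested this way, about 900 (5%) reached 50% or more in at least one test.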

Results are given as percent effect. The record does not define 0% and 100%; most values in the screen are far below 50% and negative numbers occur (in some assays of this library far below -100). The entries come from a sample that favours strong results. A dash means the value is not listed here; it may have been measured.

SMILES | Mtb glucose medium | Mtb cholesterol medium
CC(=O)Nc1nc(C(=O)N(C)C(C)CC(C)C)cs1 (stereo not shown) | -2.457% | -
Cc1ccc(NC(=O)NC[C@@H]2C[C@H](F)CN2)cc1C#N | 45.75% | -
CN1C(=O)c2ccccc2NC12CCOCC2 | 12.63% | -
COC(=O)c1ccc(CN2CCCS(=O)(=O)CC2)o1 | 10.32% | -2.43%
CC(=O)Nc1ccc(CN)cn1 | - | -9.272%
COc1ccc(C(=O)N2CCCCC2C(N)=O)cc1F (stereo not shown) | -9.267% | -
Cc1cc(C)cc(NC(=O)CNCCCO)c1 | 50.04% | -
Cc1nc(N)nc(C)c1CC(=O)N[C@H]1C[C@@H]2OCC[C@H]12 | 14.74% | -
COc1ccc(C(=O)CSc2nnc(N)[nH]2)cc1F | - | 35.6%
Cc1cc(NC(=O)NC2CCN(C3CC3)C2)no1 (stereo not shown) | 14.2% | -
CNCCCNS(=O)(=O)c1cn(C(C)C)cn1 | -10.9% | -
OCC1(O)CCCN(Cc2nccs2)CC1 (stereo not shown) | 2.985% | -
CCC[C@H]1CN(S(=O)(=O)N(C)CC)C[C@@H]1N | - | 11.37%
O=C(CCC1CCCCC1)N1CCNCC1 | - | 40.8%
O=C(Cc1cccc(F)c1)NCCn1ccnc1 | - | 4.789%
CC1CC(C)(C)NC1=O (stereo not shown) | - | -2.183%
CC1(CCCO)CCCN1 (stereo not shown) | 3.251% | -
CC1(C)CNCCC(=O)C1 | 66.58% | -
Cc1nc(-n2cccc2)sc1CO | - | 36.54%
CC(=O)NC1CCCN(c2cncc(Cl)n2)C1 (stereo not shown) | - | 7.284%
CCN1CCN(CC2CCNCC2)CC1 | - | -4.38%
O=C(NCCOc1ncccc1Cl)c1ccsc1 | 59.23% | 78.79%
COc1cccc(C(=O)N2CCC(O)(C(F)(F)F)C2)c1 (stereo not shown) | - | 26.83%
CCCNc1nc(C)c(C(C)=O)s1 | 23.61% | -
CC(C(=O)Nc1cnc2ccccc2c1)S(C)(=O)=O (stereo not shown) | 21.07% | -
NC(=O)C1CNc2ccccc21 (stereo not shown) | 1.623% | -
NC(=O)N(Cc1cccs1)CC1CCCO1 (stereo not shown) | 7.295% | -
NC(=O)[C@@H]1Cc2ccccc2CN1CCn1cccn1 | - | 5.918%
CN(Cc1cccs1)C(=O)CSc1n[nH]c(=O)n1C | 4.618% | -
COCCNC(C)C(N)=O (stereo not shown) | -9.757% | -
CSCC(C)(O)CNC(=O)c1cccc(N(C)C)c1 (stereo not shown) | 30.58% | -
O=C(Cn1nc2ccccn2c1=O)N1CCCCCC1 | - | 0.3997%
N#Cc1ccc(CN2CCCN(CCCO)CC2)cc1 | 43.91% | 33.25%
NC(=O)CN1CCN(Cc2ccc3c(c2)CCO3)CC1 | 8.682% | 0.04036%
Cc1c(Br)c(C(=O)NC(C)C)nn1C | 24.52% | -
CCOC(=O)N1CCN(C(=O)c2ccccc2O)CC1 | - | 18.5%
CCCOc1cccc(NC(=O)C(C)n2cncn2)c1 (stereo not shown) | 60.9% | -
CC1CN(C(=O)NCc2ccc(Br)s2)CC(=O)N1C (stereo not shown) | 39.86% | -
COc1cccc(CCC(=O)N2CCCC2)c1 | 75.82% | 69.53%
CC(=O)c1cc(C(=O)NCCSC(F)(F)F)[nH]n1 | 60.82% | 55.94%
O=C1CCNc2ncccc2N1 | 2.081% | -
Nc1ccc(CN2CCCCC2)cn1 | - | -1.915%
CCN1C(=O)Cc2cc(C(=O)NC(C)(C)C)ccc21 | -0.8082% | -
CC(NC(=O)CNC(=O)C1CC1)c1ccc(F)c(F)c1 (stereo not shown) | 28.06% | -
O=C(NCc1ccncc1)OCC(F)(F)F | - | 33.86%
OCCCC(Nc1ccccn1)c1ccccc1 (stereo not shown) | 57.95% | 73.07%
C1CCN(CCOC2CCNC2)C1 (stereo not shown) | - | -16.66%
CNC(=O)N(Cc1ccco1)C1CCN(C)CC1 | -5.982% | -
Cn1nc(-c2ccsc2)cc1N | - | 7.44%
OCCC1(NCc2ccc(F)cc2)CCOCC1 | - | 4.381%
N#CCCNC(=O)COc1cc(Cl)ccc1C(N)=O | 22.84% | -
CCOCCC1(CN)CCC1 | 0.6584% | -
CC(NC(=O)NC1CCN(C)CC1)c1ccncc1F (stereo not shown) | 1.884% | -
CC(C)CCNC(=O)c1cc2c([nH]c1=O)CCCC2=O | -4.265% | -
CC(C)C(=O)NCc1ccc(F)cc1 | 14.09% | -
Cc1ccc(C(C)CNC(=O)CCS(C)(=O)=O)cc1 (stereo not shown) | 28.28% | 8.163%
CCCc1nc(CN2C(=O)c3ccccc3C2=O)no1 | 15.48% | -
Oc1ncccc1F | - | -15.41%
COCCNC(=O)c1cc2ccccc2[nH]1 | - | 16.61%
COc1cccc(NC(CN)c2ccccc2)c1 (stereo not shown) | 69.75% | -
CCC(C)Oc1cc(C(=O)NCc2ncc[nH]2)ccn1 (stereo not shown) | - | 1.415%
CNC(=O)NC(=O)CSc1ccccc1F | 51.51% | -
c1ccc(-c2n[nH]c(C3CCCNC3)n2)cc1 (stereo not shown) | - | 4.486%
CN1CCCC(CNC(=O)N2CCSC(C)(C)C2)C1 (stereo not shown) | 15.81% | -
COc1ccnc(N2CCN(c3ccccn3)CC2)n1 | 6.751% | -1.867%
CCCNCCN1CCN(CC)CC1 | -2.581% | -
CC(=O)c1cccc(CN2CCCC(O)(CO)CC2)c1 (stereo not shown) | 0.3595% | -
Cc1ccc(C#N)cc1NC(=O)N1CCOCC1 | 14.49% | -
COc1ccc(C(=O)CCC(=O)N(C)C)c(Cl)c1 | 1.38% | -
N#CC(N)C1CCOCC1 (stereo not shown) | 1.655% | -
COCc1noc(CNc2cc(C)nc(N)n2)n1 | -1.077% | -
CS(=O)(=O)c1ccc(NC(=O)Cn2ccnc2)cc1 | 10.91% | -10.15%
Cc1ccc(NC(=O)CN(C)C(=O)C(C)C)cc1 | - | 23.6%
O=C(NCCCNCc1ccccc1)c1ccccn1 | 12.11% | -
Cc1cnc(NC(=O)CCn2cncn2)s1 | -4.682% | -
COc1ccccc1OCC(C)CN (stereo not shown) | 85.67% | 77.33%
NC(=O)C1CCN(C(=O)COc2ccc(F)cc2Br)C1 (stereo not shown) | 68.78% | -
CC1CCN(CC(=O)N(C)Cc2ccccn2)CC1 | 3.867% | -
CC1CCCCN1Cc1nc(-c2ccccn2)no1 (stereo not shown) | 20.86% | 9.458%
CC[C@H](C)[C@H](N)C(=O)NCCCc1ccccn1 | 2.837% | -
Cc1cc(C(=O)N(C)C2CCN(C)C2)cc(C)n1 (stereo not shown) | - | -5.926%
CN(CC(N)=O)Cc1csc(Br)c1 | - | 13.65%
CSc1nnc(C)s1 | 41.19% | -
CCC1=NOC(C(=O)N2CCC(c3nnc[nH]3)CC2)C1 (stereo not shown) | -1.732% | -

The last 8 entries again:

| SMILES | Mtb glucose medium | Mtb cholesterol medium |
|---|---|---|
| `NC(=O)C1CCN(C(=O)COc2ccc(F)cc2Br)C1` (stereo not shown) | 68.78% | - |
| `CC1CCN(CC(=O)N(C)Cc2ccccn2)CC1` | 3.867% | - |
| `CC1CCCCN1Cc1nc(-c2ccccn2)no1` (stereo not shown) | 20.86% | 9.458% |
| `CC[C@H](C)[C@H](N)C(=O)NCCCc1ccccn1` | 2.837% | - |
| `Cc1cc(C(=O)N(C)C2CCN(C)C2)cc(C)n1` (stereo not shown) | - | -5.926% |
| `CN(CC(N)=O)Cc1csc(Br)c1` | - | 13.65% |
| `CSc1nnc(C)s1` | 41.19% | - |
| `CCC1=NOC(C(=O)N2CCC(c3nnc[nH]3)CC2)C1` (stereo not shown) | -1.732% | - |

Data taken from ChEMBL document CHEMBL3988442, “University of Dundee, Small-Polar-MMV Screening Library” (2021).